Tested on: mammalian cell viability, cytotoxicity counter-screen
Assay: mammalian cell cytotoxicity, dose response, cytotoxicity control for M. tuberculosis inhibitor project (AID 435019)

Compound: O=[N+]([O-])c1cc([N+](=O)[O-])c(-c2cnn(-c3ccccc3)c2)c([N+](=O)[O-])c1
- CC50: 22.6 µM

— PubChem BioAssay AID435019 (Southern Research Specialized Biocontainment Screening …, 2010)
